Compound potency records, mixed from different reports. Data source: NIAID ChemDB in PubChem.

Common to all: growth or infection tests; species: HIV-1; cell line: MT-2; endpoint: EC50

ECn is the concentration giving n% inhibition of infection, replication or growth.

smiles,strain,method,value
C[C@H](O)[C@H](CN[C@]12CC[C@@H](C3(C)CC3)[C@@H]1[C@H]1CC[C@@H]3[C@@]4(C)CC[C@H](OC(=O)[C@H]5C[C@@H](C(=O)O)C5(C)C)C(C)(C)[C@@H]4CC[C@@]3(C)[C@]1(C)CC2)N1CCS(=O)(=O)CC1,92HT599,p24 / ELISA,<0.01 µM
CC(C)C1=C2[C@H]3CC[C@@H]4[C@@]5(C)CC[C@H](OC(=O)[C@H]6C[C@@H](C(=O)O)C6(C)C)C(C)(C)[C@@H]5CC[C@@]4(C)[C@]3(C)CC[C@@]2([C@@H](O)CNC(=O)C(CCN)NC(=O)c2ccc(Cl)cc2)CC1=O,92HT599,p24 / ELISA,<1 µM
C=C(C)[C@@H]1CC[C@]2(NC[C@H]([C@@H](C)O)N3CCS(=O)(=O)CC3)CC[C@]3(C)[C@H](CC[C@@H]4[C@@]5(C)CC[C@H](OC(=O)[C@H]6C[C@@H](C(=O)O)C6(C)C)C(C)(C)[C@@H]5CC[C@]43C)[C@@H]12,92HT599,p24 / ELISA,<0.01 µM
CC(C)C1=C2[C@H]3CC[C@@H]4[C@@]5(C)CC[C@H](OC(=O)[C@H]6C[C@@H](C(=O)O)C6(C)C)C(C)(C)[C@@H]5CC[C@@]4(C)[C@]3(C)CC[C@@]2(CCNCC2(NC(=O)c3ccc(Cl)cc3)CCCC2)CC1=O,92HT599,p24 / ELISA,<1 µM
CC(C)C1=C2C(CC[C@]3(C)[C@@H]2CC[C@@H]2[C@@]4(C)CC[C@H](OC(=O)[C@H]5C[C@@H](C(=O)O)C5(C)C)C(C)(C)[C@@H]4CC[C@]23C)[C@H](NC(=O)C(C)(C)C(=O)NC2CCCCC2)C1=O,92HT599,p24 / ELISA,<0.01 µM
CCN1CCN(CC(=O)NCC[C@@]23CC[C@]4(C)[C@H](CC[C@@H]5[C@@]6(C)CC[C@H](OC(=O)[C@H]7C[C@@H](C(=O)O)C7(C)C)C(C)(C)[C@@H]6CC[C@]54C)C2=C(C(C)C)C(=O)C3)CC1,92HT599,p24 / ELISA,<1 µM
Cc1cn([C@@H]2O[C@H](CO)[C@@H](CF)[C@@H]2O)c(=O)[nH]c1=O,IIIB,cytopathic effect / MTT,>100 µM
CC1([C@@H]2CC[C@]3(NC[C@@H](CF)N4CCS(=O)(=O)CC4)CC[C@]4(C)[C@H](CC[C@@H]5[C@@]6(C)CC[C@H](OC(=O)[C@H]7C[C@@H](C(=O)O)C7(C)C)C(C)(C)[C@@H]6CC[C@]54C)[C@@H]23)CC1,92HT599,p24 / ELISA,<0.01 µM
OC[C@@H]1C=C[C@H](n2cnc3c(Cl)ncnc32)C1,IIIB,cytopathic effect / XTT,>10 µg/mL
COCCNC(=O)[C@@H](NC(=O)[C@H](Cc1ccc(OC)c(OC)c1OC)C[C@H](O)[C@H](Cc1ccccc1)NC(=O)OC(C)(C)C)C(C)C,MN,RT activity,0.0052 µM
CCCCCCCCCCCCCCCCCCOC[C@@H](O)COP(=O)(O)C(=O)O,LAI,p24,1400 µM
CC1([C@@H]2CC[C@]3(NC[C@H](CO)N4CCS(=O)(=O)CC4)CC[C@]4(C)[C@H](CC[C@@H]5[C@@]6(C)CC[C@H](OC(=O)[C@H]7C[C@@H](C(=O)O)C7(C)C)C(C)(C)[C@@H]6CC[C@]54C)[C@@H]23)CC1,92HT599,p24 / ELISA,<0.01 µM
CC(C)C1=C2[C@H]3CC[C@@H]4[C@@]5(C)CC[C@H](OC(=O)[C@H]6C[C@@H](C(=O)O)C6(C)C)C(C)(C)[C@@H]5CC[C@@]4(C)[C@]3(C)CC[C@@]2(CCNCc2nccn2C)CC1=O,92HT599,p24 / ELISA,<1 µM
CC(C)C1=C2C(CC[C@]3(C)[C@@H]2CC[C@@H]2[C@@]4(C)CC[C@H](OC(=O)[C@H]5C[C@@H](C(=O)O)C5(C)C)C(C)(C)[C@@H]4CC[C@]23C)[C@H](NC(=O)C(C)(C)C(=O)N2CCOCC2)C1=O,92HT599,p24 / ELISA,<0.01 µM
C[C@H](F)[C@@H](CN[C@]12CC[C@@H](C3(C)CC3)[C@@H]1[C@H]1CC[C@@H]3[C@@]4(C)CC[C@H](OC(=O)[C@H]5C[C@@H](C(=O)O)C5(C)C)C(C)(C)[C@@H]4CC[C@@]3(C)[C@]1(C)CC2)N1CCS(=O)(=O)CC1,92HT599,p24 / ELISA,>0.02 µM
[2H]C(CO)(NC(=O)c1ccc(Cl)cc1)C(=O)NC[C@H](O)[C@@]12CC[C@]3(C)[C@H](CC[C@@H]4[C@@]5(C)CC[C@H](OC(=O)[C@H]6C[C@@H](C(=O)O)C6(C)C)C(C)(C)[C@@H]5CC[C@]43C)C1=C(C(C)C)C(=O)C2,92HT599,p24 / ELISA,<1 µM
Cc1ccc(C)n1-c1ccc(C(=O)O)c(O)c1,RF X4 CLADE B,p24,1.69 µM
Cc1cn([C@@H]2O[C@H](CO)[C@@H](CF)[C@H]2O)c(=O)[nH]c1=O,IIIB,cytopathic effect / MTT,>100 µM
COc1cc(Cl)ccc1C(=O)NC(C)(C)CNC[C@H](O)[C@@]12CC[C@]3(C)[C@H](CC[C@@H]4[C@@]5(C)CC[C@H](OC(=O)[C@H]6C[C@@H](C(=O)O)C6(C)C)C(C)(C)[C@@H]5CC[C@]43C)C1=C(C(C)C)C(=O)C2,92HT599,p24 / ELISA,<1 µM
C[C@@H](CN[C@]12CC[C@@H](C3(C)CC3)[C@@H]1[C@H]1CC[C@@H]3[C@@]4(C)CC[C@H](OC(=O)[C@H]5C[C@@H](C(=O)O)C5(C)C)C(C)(C)[C@@H]4CC[C@@]3(C)[C@]1(C)CC2)N1CCS(=O)(=O)CC1,92HT599,p24 / ELISA,<0.01 µM
CC(C)C1=C2[C@H]3CC[C@@H]4[C@@]5(C)CC[C@H](OC(=O)[C@H]6C[C@@H](C(=O)O)C6(C)C)C(C)(C)[C@@H]5CC[C@@]4(C)[C@]3(C)CC[C@@]2(CCNCC(C)(C)NC(=O)c2ccc(Cl)cc2OCCN2CCCC2)CC1=O,92HT599,p24 / ELISA,<1 µM
Cc1cn([C@H]2C[C@H](CN=[N+]=[N-])[C@@H](CO)O2)c(=O)[nH]c1=O,IIIB,cytopathic effect / MTT,>100 µM
Cn1nc(NS(C)(=O)=O)c2c(Cl)ccc(-n3c([C@H](Cc4cc(F)cc(F)c4)NC(=O)Cn4ccc5ccccc54)nc4nc(-c5ccccc5F)ccc4c3=O)c21,NL4-3,luciferase,0.003 µM
Nc1nc(N)c2ncn([C@H]3C=C[C@@H](CO)C3)c2n1,IIIB,cytopathic effect / XTT,2.9 µg/mL
CC(C)C1=C2C(CC[C@]3(C)[C@@H]2CC[C@@H]2[C@@]4(C)CC[C@H](OC(=O)[C@H]5C[C@@H](C(=O)O)C5(C)C)C(C)(C)[C@@H]4CC[C@]23C)[C@H](NC(=O)C(C)(C)C(=O)N2CCCCC2)C1=O,92HT599,p24 / ELISA,<0.01 µM
Nc1ncnc2c1ncn2[C@H]1C=C[C@@H](CO)C1,IIIB,cytopathic effect / XTT,2.3 µg/mL
CC(C)S(=O)(=O)N1CCN([C@@H](C)CN[C@]23CC[C@@H](C4(C)CC4)[C@@H]2[C@H]2CC[C@@H]4[C@@]5(C)CC[C@H](OC(=O)[C@H]6C[C@@H](C(=O)O)C6(C)C)C(C)(C)[C@@H]5CC[C@@]4(C)[C@]2(C)CC3)CC1,92HT599,p24 / ELISA,<0.01 µM

Repeating the final 4 entries:

smiles	strain	method	value
Nc1nc(N)c2ncn([C@H]3C=C[C@@H](CO)C3)c2n1	IIIB	cytopathic effect / XTT	2.9 µg/mL
CC(C)C1=C2C(CC[C@]3(C)[C@@H]2CC[C@@H]2[C@@]4(C)CC[C@H](OC(=O)[C@H]5C[C@@H](C(=O)O)C5(C)C)C(C)(C)[C@@H]4CC[C@]23C)[C@H](NC(=O)C(C)(C)C(=O)N2CCCCC2)C1=O	92HT599	p24 / ELISA	<0.01 µM
Nc1ncnc2c1ncn2[C@H]1C=C[C@@H](CO)C1	IIIB	cytopathic effect / XTT	2.3 µg/mL
CC(C)S(=O)(=O)N1CCN([C@@H](C)CN[C@]23CC[C@@H](C4(C)CC4)[C@@H]2[C@H]2CC[C@@H]4[C@@]5(C)CC[C@H](OC(=O)[C@H]6C[C@@H](C(=O)O)C6(C)C)C(C)(C)[C@@H]5CC[C@@]4(C)[C@]2(C)CC3)CC1	92HT599	p24 / ELISA	<0.01 µM

Conditions beyond the fields shown may differ between rows.